Assay [1] concerns the target T1, (M113F-RL2)6(M113C-D8RL2)1 (Staphylococcus aureus, UniProt P09616, G156S/I168L/K34A/M139C/M139F/N165Q/T289P/V150L). Conditions: 55° C., 25 mM Tris.HCl, pH 8.0, 1 M KCl, +100 mV.
The target in assay [2] is αHL (M113F-RL2)7 (Staphylococcus aureus, UniProt P09616, G156S/I168L/K34A/M139F/N165Q/T289P/V150L). Conditions: 25 mM Tris.HCl, pH 8.0, 1 M KCl.
The target of assay [3] is αHL (M113N-RL2)7 (Staphylococcus aureus, UniProt P09616, G156S/I168L/K34A/M139N/N165Q/T289P/V150L). Conditions: 25 mM Tris.HCl, pH 8.0, 1 M KCl, −100 mV.
The target in assay [4] is (M113F-RL2)6(M113C-D8RL2)1-βCD (Staphylococcus aureus, UniProt P09616, G156S/I168L/K34A/M139C/M139F/N165Q/T289P/V150L).
Assay [5] concerns the target (M113N-RL2)6(T117C-D8RL3)1 (Staphylococcus aureus, UniProt P09616, G156S/I168L/K34A/M139N/N165Q/T143C/T289P/V150L).
For assay [6], the target named is (M113N-RL2)6(M113C-D8RL2)1 (Staphylococcus aureus, UniProt P09616, G156S/I168L/K34A/M139C/M139N/N165Q/T289P/V150L). Conditions: ten attempts of 30 min each.
In assay [7] the target is T1, (M113F-RL2)6(M113C-D8RL2)1. To be noted: +100 mV, n=5.

Take β-cyclodextrin: in assay [1], the “τoff for βCD” value amounted to 56 ± 3.8 ms. Further, the “τoff of βCD” value in assay [2] (50 μM βCD, −100 mV) was 0.68 ± 0.12 s. In addition, in assay [2] (+100 mV), the “current blockade by βCD” value turned out to be 70% and the “mean τoff of βCD non-covalently bound” value turned out to be 316 ± 62 ms. In addition, the “mean τoff of βCD non-covalently bound” value in assay [3] came out at 10.7 ± 1.5 s.

With cis-lithocholic acid, the “signal on addition to the cis chamber” value in assay [4] (50 μM cis, +100 mV, 25 mM Tris.HCl, pH 8.0, 1 M KCl (n=3)) is given as “no signal was observed”. In addition, in assay [4] (50 μM trans, −100 mV), the “current block at the beginning and at the end of each event (level 2)” value came to 92%; the “current block of the binding events (level 3)” value was 98%; the “duration of the 92% block at the beginning of each event” value amounted to 200 ± 100 ms; the “duration of the 92% block at the end of the event” value worked out at 150 ± 100 ms. The “mean τoff of the events” value in assay [4] (50 μM trans, −100 mV, number of events=60) stood at 8.6 ± 7.8 s.

“6-monodeoxy-6-[3-(2-pyridyldithio)propionyl]monoamino-β-cyclodextrin”: the “reversal of the permanent block” value in assay [5] (total of 24 h (over 16 experiments)) was “not reversed”. Also, the “lifetime of the intermediate state preceding the permanent block” value in assay [5] (−100 mV, n=5) turned out to be 5 ± 2 ms. Also, in assay [6], the “covalent attachment of βCD-PDP to Cys-113” value was “failed to occur”. Further, the “duration of the transient state preceding the permanent block” value in assay [7] is 48 ± 7 ms.

The record behind these values is patent US8822160B2, “Molecular adaptors” (dated 2014).
